Compound potency records, mixed from different reports. Data source: NIAID ChemDB in PubChem.

Common to all: tests in culture; species: Aspergillus fumigatus; method: broth dilution; endpoint: MIC

Blank or dashed fields: not listed here. Conditions beyond the fields shown may differ between rows.

compound	strain	result
C[C@@H]1[C@H](O)[C@@H](C)/C=C/C=C/CC/C=C/C=C/C=C/C=C/C(O[C@H]2O[C@H](C)[C@@H](O)[C@H](N)[C@@H]2O)CC2O[C@](O)(CC(O)C(O)CCC(O)CC(O)CC(O)CC(=O)O[C@H]1C)CC(O)C2C(=O)O	MTCC 3008	100 µg/mL
O=C(CN1CCN(C(c2ccccc2)c2ccc(Cl)cc2)CC1)Cn1cncn1	ATCC 96918	100 µg/mL
N#CC1=C(N)N(c2nc(-c3ccc(O)cc3)cs2)C2=C(C(=O)CCC2)C1c1cc2ccccc2nc1F	MTCC 3008	500 µg/mL
Cc1ccc2nc(Sc3ccccc3)c(C3C(C#N)=C(N)Oc4c3c(=O)oc3ccc(C)cc43)cc2c1	MTCC 3008	500 µg/mL
N#C/C(=C/c1cc2ccccc2nc1N1CCOCC1)c1nc2ccccc2[nH]1	MTCC 3008	>1000 µg/mL
c1ccc([C@H]2CN3CCSC3=N2)cc1		>120 µM
Cc1ccc2nc(N3CCOCC3)c(CC(C#N)c3nc4ccccc4[nH]3)cc2c1	MTCC 3008	500 µg/mL
O=C(Cn1nnc2ccccc21)N1CCN(C(c2ccccc2)c2ccc(Cl)cc2)CC1	ATCC 96918	>400 µg/mL
O=C/C=C/c1ccccc1	MTCC 2550	80 µg/mL
N#CSCc1ccccc1		150 µg/mL
CCOC(=O)C1=C(N)N(c2nc(-c3ccccc3O)cs2)C2=C(C(=O)CCC2)C1c1cc2cc(OC)ccc2nc1F	MTCC 3008	100 µg/mL
N#CCc1ccccc1		150 µg/mL
O=C(CSc1nc2ccccc2[nH]1)N1CCN(C(c2ccccc2)c2ccc(Cl)cc2)CC1	ATCC 96918	>400 µg/mL
Cc1ccc2nc(F)c(C3C(C#N)=C(N)N(c4nc(-c5ccccc5)cs4)C4=C3C(=O)CCC4)cc2c1	MTCC 3008	1000 µg/mL
Cc1nccn1CC(=O)CN1CCN(C(c2ccccc2)c2ccc(Cl)cc2)CC1	ATCC 96918	50 µg/mL
S=C=NCc1ccccc1		9 µg/mL
CC(C)=CCOc1ccc2c(c1C)C(=O)c1ccccc1C2=O	Standard strain	31.25 µg/mL
N#CC1=C(N)N(c2nc(-c3ccccc3)cs2)C2=C(C(=O)CCC2)C1c1cc2cc(Cl)ccc2nc1F	MTCC 3008	1000 µg/mL
COc1cccc(CN=C=S)c1		30 µg/mL
Cc1ccc(Sc2nc3ccc(C)cc3cc2C2C(C#N)=C(N)Oc3cc(C)oc(=O)c32)cc1	MTCC 3008	250 µg/mL
N#CC1=C(N)N(c2nc(-c3ccccc3)cs2)C2=C(C(=O)CCC2)C1c1cc2ccccc2nc1F	MTCC 3008	>1000 µg/mL
C[C@H]1[C@H](O)[C@@H](C)/C=C/C=C/C=C/C=C/C=C/C=C/C=C/[C@H](O[C@@H]2O[C@H](C)[C@@H](O)[C@H](N)[C@@H]2O)C[C@@H]2O[C@](O)(C[C@@H](O)C[C@@H](O)CC[C@H](O)[C@@H](O)C[C@@H](O)CC(=O)O[C@H]1C)C[C@H](O)[C@H]2C(=O)O		0.12 µg/mL
COc1ccc2nc(F)c(C3C(C#N)=C(N)N(c4nc(-c5ccc(O)cc5)cs4)C4=C3C(=O)CCC4)cc2c1	MTCC 3008	>1000 µg/mL
CNc1ccc(C(=O)CC(O)CC[C@H](C)[C@H]2OC(=O)C[C@H](O)CC(=O)CC(O)CC(O)CC(O)CC(O)C[C@]3(O)C[C@H](O)[C@@H](C(=O)NCCN(C)C)[C@H](C[C@@H](O[C@@H]4OC(C)[C@@H](O)[C@H](NC(=O)CN(C)C)[C@@H]4O)/C=C/C=C/C=C/C=C/C=C/C=C/C=C/[C@@H]2C)O3)cc1.O=C1O[C@H]([C@@H](O)CO)C(O)=C1O.O=C1O[C@H]([C@@H](O)CO)C(O)=C1O	MF-13	0.5 µg/mL
CC(C)=CCC/C(C)=C/CO	MTCC 2550	144 µg/mL
COc1ccc2nc(Sc3ccccc3)c(C3C(C#N)=C(N)Oc4c3c(=O)oc3ccc(C)cc43)cc2c1	MTCC 3008	1000 µg/mL
Clc1ccc(C(c2ccccc2)N2CCN(Cc3nc4ccccc4[nH]3)CC2)cc1	ATCC 96918	50 µg/mL
O=c1oc2ccccc2cc1-c1ccc(C2CSC(=Nc3ccccc3)N2CCN2C(=Nc3ccccc3)SCC2c2cc3ccccc3oc2=O)cc1		0.03 µg/mL
COc1ccc2nc(N3CCOCC3)c(CC(C#N)c3nc4ccc(C)cc4[nH]3)cc2c1	MTCC 3008	250 µg/mL
N#CC1=C(N)N(c2nc(-c3ccc(Cl)cc3)cs2)C2=C(C(=O)CCC2)C1c1cc2cc(Cl)ccc2nc1F	MTCC 3008	>1000 µg/mL
C[C@H]1[C@H](O)[C@@H](C)/C=C/C=C/C=C/C=C/C=C/C=C/C=C/[C@H](O[C@@H]2O[C@H](C)[C@@H](O)[C@H](N)[C@@H]2O)C[C@@H]2O[C@](O)(C[C@@H](O)C[C@@H](O)CC[C@H](O)[C@@H](O)C[C@@H](O)CC(=O)O[C@H]1C)C[C@H](O)[C@H]2C(=O)O	ITCC 4517	1.95 µg/mL
COc1ccc2nc(N3CCOCC3)c(CC(C#N)c3nc4ccccc4[nH]3)cc2c1	MTCC 3008	500 µg/mL